Measured values from several laboratories, pooled; numbers as filed in NIAID ChemDB.

Shared fields: cytotoxicity tests; cell line: VERO; endpoint: CC50

Neighbouring rows are from separate reports. CCn: concentration that lowers growth or viability of the cells by n%.

smiles,value
Nc1nc(=O)n([C@H]2C=C[C@@H](CO)O2)cc1Br,>100 µM
O=C1NC(=O)c2c1c1c3ccccc3[nH]c1c1c2c2ccccc2n1CC(F)(F)F,<8 µM
NC(=O)c1cn(-c2ccc(F)cc2)c2cc(-c3cc[n+]([O-])cc3)ccc2c1=O,>12.5 µg/mL
Cc1nn2c(=O)c3cnn(-c4ccccc4)c3nc2n1-c1ccccc1,100 µg/mL
N#Cc1c(N2CCOCC2)nsc1-c1ccccc1,1 µg/mL
O[C@]12C=C(Cc3cnccn3)[C@@H]3CCN(CCCC/C=C\CC1)C[C@@]31C[C@@H]3CCCCCCN3C12,>4.76 µg/mL
CC1=C(N)C(=O)C2=C(C1=O)N1C[C@H]3[C@H](N3C)[C@]1(O)[C@@H]2COC(N)=O,0.4 µg/mL
CSc1nsc(-c2ccccc2)c1C(N)=O,250 µg/mL
CC(/C=C/c1ccco1)=N\NC(=O)c1ccncc1,28 µg/mL
N#Cc1c(SCCO)nsc1-c1ccccc1,5 µg/mL
CCC(C)C(N)C(=O)O[C@H]1C[C@H](n2cc(/C=C/Br)c(=O)[nH]c2=O)O[C@@H]1COP1(=O)OCc2cccc(C)c2O1,64.4 µg/mL
Cc1ccc(C(=O)Nc2ccc(S(=O)(=O)O)c3cc(S(=O)(=O)O)cc(S(=O)(=O)O)c23)cc1NC(=O)c1cccc(NC(=O)Nc2cccc(C(=O)Nc3cc(C(=O)Nc4ccc(S(=O)(=O)O)c5cc(S(=O)(=O)O)cc(S(=O)(=O)O)c45)ccc3C)c2)c1,150 µg/mL
CCn1cc2c(=O)n(C)nc-2c2ccc(-c3ccncc3)cc21,>3.1 µg/mL
Nc1nc(=O)n([C@@H]2C=C[C@H](CO)O2)cc1F,9.4 µM
CCOCn1c([Se]c2ccccc2)cc(=O)[nH]c1=O,28 µM
COc1cc(O)c(CC=C(C)C)c2c1C(=O)CC(c1ccc(O)cc1)O2,62 µg/mL
CCN(CC)CCNc1ccc2ncn3c4ccc(O)cc4c(=O)c1c23.Cl,0.85 µg/mL
CCOC(=O)P(=O)(O)OCCOCn1cnc2c(=O)[nH]c(N)nc21,>2646 µM
N#Cc1c(SCCCCBr)nsc1-c1ccccc1,25 µg/mL
O=C1NC(=O)c2c1c1c3ccccc3[nH]c1c1[nH]c3ccccc3c21,>125 µM
Nc1nc(=O)n([C@@H]2C=C[C@@H](CO)O2)cc1F,>100 µM
Brc1ccc2[nH]c3ccc(Br)cc3c2c1,>128 µM
O=C(Nn1c(Nc2ccccc2)nc2c(cnn2-c2ccccc2)c1=O)c1cccs1,220 µg/mL
O=c1[nH]c(=O)n([C@@H]2C=C[C@@H](CO)O2)cc1F,3 µM
CCN(CC)CC[n+]1ccc2c(C)c3[nH]c4ccccc4c3c(C)c2c1,>10 µg/mL
Nc1nc(=O)n([C@H]2C=C[C@@H](CO)O2)cc1F,>100 µM
Cc1ccc(C(=O)Nc2ccc(S(=O)(=O)O)c3cc(S(=O)(=O)O)cc(S(=O)(=O)O)c23)cc1NC(=O)c1cccc(NC(=O)Nc2cccc(C(=O)Nc3cc(C(=O)Nc4ccc(S(=O)(=O)O)c5cc(S(=O)(=O)O)cc(S(=O)(=O)O)c45)ccc3C)c2)c1,1821 µg/mL
CCN(CC)CCNc1ccc(C)c2sc3ccc(OC)cc3c(=O)c12,1.29 µg/mL
CCOCn1c([Se]c2ccccc2)c(C)c(=O)[nH]c1=O,107 µM
CCCCCCCn1c2ccccc2c2c(OC)c(CO)c(C)cc21,40 µM
O=c1c2cnn(-c3ccccc3)c2nc2n(-c3ccccc3)cnn12,220 µg/mL
Cc1c(CC(=O)O)ccc(O)c1O,>128 µg/mL
Cc1cccc2c1OP(=O)(OC[C@H]1O[C@@H](n3cc(/C=C/Br)c(=O)[nH]c3=O)C[C@@H]1OC(=O)[C@H](C)N)OC2,74.1 µg/mL
COC(=O)c1cc(OC)c2[nH]c3ccccc3c2c1,>128 µM
O=C(N/N=C/NNC(=O)c1ccncc1)c1ccncc1,>62.5 µg/mL
Cc1cccc2c1OP(=O)(OC[C@H]1O[C@@H](n3cc(/C=C/Br)c(=O)[nH]c3=O)C[C@@H]1OC(=O)C(C)(C)C)OC2,33.7 µg/mL
Nc1nc2c(ncn2COCCOP2(=O)OCc3ccccc3O2)c(=O)[nH]1,>325 µM
CCN1C=C2C(=O)CN=C2c2ccc(-c3ccncc3)cc21,>100 µg/mL
Cc1cn([C@@H]2O[C@H](CO)C[C@H]2F)c(=O)[nH]c1=O,>100 µM
CCCCCCCC1=C(C)C(=O)c2[nH]c3ccccc3c2C1=O,>128 µM
CCCOc1ccc(N(C)c2cc(C)nc3ccc(Cl)cc23)cc1,<0.2 µM
CCC[CH2][Sn]([F])([F])[CH2]CCC.c1cnc2c(c1)ccc1cccnc12,0.09 µg/mL
Nc1ccn([C@@H]2C=C(CO)[C@@H](O)[C@@H]2O)c(=O)n1,320 µg/mL
Nc1nc(=O)n([C@H]2C=C[C@@H](CO)O2)cc1I,>100 µM
CCn1cc(C(N)=O)c(=O)c2ccc(Cl)cc21,>100 µg/mL
CN(C)c1nsc(-c2ccccc2)c1C#N,15 µg/mL
CSc1c2c(c(C)c3c1[nH]c1ccccc13)C=NCC2,>10 µg/mL
O=C(NNC=NCc1ccccc1)c1ccncc1,>10 µg/mL
O=C1C=CN([C@@H]2O[C@H](CO)[C@@H](O)[C@H]2O)C(=O)C1,683 µg/mL
COC(=O)C1C(OC(C)=O)C(C)C(O)C(C)(O)/C=C(\C)C2=C3C(=C(C)C(=O)c4c(O)c(c(C)c(OC(C)=O)c43)NC(=O)/C(C)=C/C=C\[C@](C)(O)C(O)[C@@H](C)C1O)OCO2,24.6 µg/mL
O=C(C=Cc1ccc(O)c(O)c1)O[C@@H]1C[C@](O)(C(=O)O)C[C@@H](O)[C@H]1O,>512 µg/mL
O=c1[nH]c(=O)n([C@H]2C[C@H](O)[C@@H](CO)O2)cc1C12B3B4B5B6B(B3B1B42)B1B5C61,17.3 µM
CCC(=O)O[C@H]1C[C@H](n2cc(/C=C/Br)c(=O)[nH]c2=O)O[C@@H]1COP1(=O)OCc2cccc(C)c2O1,>64 µg/mL
CCCC(=O)OC[C@@H]1C=C[C@H](n2cc(F)c(N)nc2=O)O1,>100 µM
C[C@H](N)C(=O)O[C@H]1C[C@H](n2cc(/C=C/Br)c(=O)[nH]c2=O)O[C@@H]1COP1(=O)OCc2ccccc2O1,>128 µg/mL
Nc1ncn([C@@H]2O[C@H](CO)[C@@H](O)[C@H]2O)c(=O)n1,320 µg/mL
Cc1cn(CCC(CO)COP2(=O)OCc3ccccc3O2)c(=O)[nH]c1=O,>364 µM
NC(=O)c1[nH]nc([C@@H]2O[C@H](CO)[C@@H](O)[C@H]2O)c1O,90 µg/mL
O[C@]12C=C(Cc3cc4cc(F)ccc4[nH]3)[C@@H]3CCN(CCCC/C=C\CC1)C[C@@]31C[C@@H]3CCCCCCN3C12,>4.76 µg/mL
CC(=O)O[C@H]1C[C@H](n2cc(/C=C/Br)c(=O)[nH]c2=O)O[C@@H]1COP1(=O)OCc2cccc(C)c2O1,>128 µg/mL
Cc1nc2nc(C)n(CCN3CCOCC3)c(=O)c2c(-c2cccc([N+](=O)[O-])c2)c1C(=O)CCCCCCCCCCN1CCC(c2ccccc2)(c2ccccc2)CC1,2.52 µg/mL
O=c1cnn([C@@H]2O[C@H](CO)[C@@H](O)[C@H]2O)c(=O)[nH]1,0.08 µg/mL
CCOC(=O)P(=O)(O)OC[C@H]1S[C@@H](n2cc(CC)c(=O)[nH]c2=O)C[C@@H]1O,>1200 µM
Nc1ccc2nc3cc(Nc4ccccc4)c(=Nc4ccccc4)cc-3n(-c3ccccc3)c2c1,9.2 µg/mL
O=Cc1cc2c3ccc(O)cc3[nH]c2c2ccoc12,40 µM
Nc1nccc2c1ncn2[C@@H]1C=C(CO)[C@@H](O)[C@H]1O,100 µg/mL
Cc1cc(-c2ccc3c(=O)c(C(N)=O)cn(-c4ccc(F)cc4)c3c2)on1,>100 µg/mL
Nc1ncnc2c1ccn2[C@@H]1O[C@H](CO)[C@@H](O)[C@H]1O,0.0063 µg/mL
CCCSc1nsc(-c2ccccc2)c1C#N,200 µg/mL
O=C1CCCN2C(CC1)C[C@]13CN4CCCC/C=C\CC[C@](O)(C=C(c5nccc6c5[nH]c5c(O)cccc56)[C@@H]1CC4)[C@H]23,>4.76 µg/mL
Cc1cn(CCC(CO)CO)c(=O)[nH]c1=O,>593 µM
O=c1ccc2nc3ccccc3sc-2c1,8.18 µg/mL
O=c1cc[nH]c(=S)[nH]1,100 µg/mL
CN(C)c1ccc(-c2nnc3c(c(=O)n(C)c(=O)n3C)[n+]2[O-])cc1,3 µg/mL
NC(=O)c1c[nH]c2cc(-c3ccncc3)ccc2c1=O,>12.5 µg/mL
C=C[C@]1(C)C=C2C(=O)c3c(NC=O)cccc3C(C)(C)[C@H]2C[C@H]1O,>100 µM
Cc1cccc2c1OP(=O)(OC[C@H]1O[C@@H](n3cc(/C=C/Br)c(=O)[nH]c3=O)C[C@@H]1OC(=O)[C@@H](N)Cc1ccccc1)OC2,88.8 µg/mL
CSc1nsc(-c2ccccc2)c1C(=O)O,500 µg/mL
Cc1cccc2c1OP(=O)(OC[C@H]1O[C@@H](n3cc(/C=C/Br)c(=O)[nH]c3=O)C[C@@H]1OC(=O)[C@H](N)Cc1ccccc1)OC2,>128 µg/mL
CCn1c(N)c(C(N)=O)c(=O)c2ccc(-c3ccncc3)cc21,>12.5 µg/mL
N#Cc1c(N2CCCC2)nsc1-c1ccccc1,7 µg/mL
CC(=O)N[C@H]1[C@@H](O[C@@H]2O[C@H](C[C@@H](O)[C@H]3O[C@@H](n4ccc(=O)[nH]c4=O)[C@H](O)[C@@H]3O)[C@H](O)[C@H](O)[C@H]2NC(=O)/C=C/CC(C)C)O[C@H](CO)[C@@H](O)[C@@H]1O,23.1 µg/mL
O=c1cnn([C@@H]2O[C@H](CO)[C@@H](O)[C@H]2O)c(=O)[nH]1,85 µg/mL
CCCCCn1cc(C(N)=O)c(=O)c2ccc(-c3ccncc3)cc21,>6.25 µg/mL
CO[C@H]1/C=C/O[C@@]2(C)Oc3c(C)c(O)c4c(O)c(c(/C=N/N5CCCCCCCCCCCC5)c(O)c4c3C2=O)NC(=O)/C(C)=C\C=C\[C@H](C)[C@H](O)[C@@H](C)[C@@H](O)[C@@H](C)[C@H](OC(C)=O)[C@@H]1C,8.67 µg/mL
Cc1cccc2c1OP(=O)(OC[C@H]1O[C@@H](n3cc(/C=C/Br)c(=O)[nH]c3=O)C[C@@H]1OC(=O)C(C)C)OC2,32.2 µg/mL
CCCCCCCCCCC[C@@H]1CCC[C@H](C)N1,5.62 µg/mL
[O-][n+]1ccc(CC2=C[C@@]3(O)CC/C=C\CCCCN4CC[C@@H]2[C@]2(C[C@@H]5CCCCCCN5C23)C4)cc1,>4.76 µg/mL
Cc1cc2no[n+]([O-])c2cc1C,>10 µg/mL
Nc1nccc2c1ncn2[C@@H]1C[C@H](CO)[C@@H](O)[C@H]1O,11 µg/mL
NC(=S)NNC(=O)c1ccc([N+](=O)[O-])cc1,56 µg/mL
CCSc1nsc(-c2ccccc2)c1C#N,100 µg/mL
CC(C)OC(=S)Nc1ccc(Cl)c(COC(C)(C)C)c1,>10 µg/mL
O=c1c2cnn(-c3ccccc3)c2nc(Nc2ccccc2)n1/N=C/c1ccc(Br)cc1,100 µg/mL
O=c1c2ccccc2sc2c(CO)ccc(NCCN3CCCCC3)c12,1.89 µg/mL
CCn1cc(C(=O)NNC)c(=O)c2ccc(-c3ccncc3)cc21,>25 µg/mL

A second listing of 6 rows from above:

smiles | value
O=c1cc[nH]c(=S)[nH]1 | 100 µg/mL
N#Cc1c(SCCO)nsc1-c1ccccc1 | 5 µg/mL
CC(C)OC(=S)Nc1ccc(Cl)c(COC(C)(C)C)c1 | >10 µg/mL
COc1cc(O)c(CC=C(C)C)c2c1C(=O)CC(c1ccc(O)cc1)O2 | 62 µg/mL
CCCCCCCC1=C(C)C(=O)c2[nH]c3ccccc3c2C1=O | >128 µM
O=C(N/N=C/NNC(=O)c1ccncc1)c1ccncc1 | >62.5 µg/mL